From ChEMBL document CHEMBL1789904, “Imaging of Plasmodium liver stages to drive next-generation antimalarial drug discovery” (Science, 2011)
pIC50: −log10 of the molar value.

System: Plasmodium yoelii
Experiment: NOVARTIS: Antimalarial liver stage activity measured as reduction in Plasmodium yoelii schizont area in HepG2-A16-CD81 cells by immuno-fluorescence, and median schizont size at 10uM compound concentration

## CCCN(CCC)[P+](CC)(N(CCC)CCC)N(CCC)CCC
  pIC50: 6.59
